Measured values from several laboratories, pooled; numbers as filed in NIAID ChemDB.

All rows: tests in culture; agent: Mycobacterium tuberculosis

MIC bound: limit read from a one-dose screen.

compound	changes	strain or isolate	cell line	read by	dose	endpoint	value
CCc1nc2sc(C)cn2c1C(=O)NCc1ccc(N2CCC(c3ccc(OC(F)(F)F)cc3)CC2)cc1	-	H37Rv	-	resazurin	-	MIC90	<2 µM
CO[C@H]1/C=C/O[C@@]2(C)Oc3c(C)c(O)c4c(O)c(c5c(c4c3C2=O)NC2(CCN(CC(C)C)CC2)N=5)=NC(=O)/C(C)=C\C=C\[C@H](C)[C@H](O)[C@@H](C)[C@@H](O)[C@@H](C)[C@H](OC(C)=O)[C@@H]1C	-	Isolate 900145 drug-susceptible	-	-	-	MIC	0.063 µg/mL
COc1ccc(-c2noc(C3=CC4(CCN(CC5CCCO5)CC4)c4ccccc43)n2)cc1	Spiroindene-resistant	TB377	-	turbidity	-	MIC	1.5 µM
COc1ccc(-c2oc3ccc(Br)cc3c(=O)c2O)cc1	-	H37Rv	-	-	12.5 µg/mL	inhibition	24%
C1=C(c2nc(-c3cccnc3)no2)c2ccccc2C12CCN(CC1CCCO1)CC2	Ethambutol-resistant	17003	-	resazurin	-	MIC	1.56 µM
O=c1cc(-c2ccccc2)oc2ccc(Cl)cc12	-	H37Rv	-	-	-	MIC	>12.5 µg/mL
Cc1ccn2c(C(=O)NCc3ccc(N4CCC(NC(=O)OC(C)(C)C)CC4)c(F)c3)c(C)nc2c1	-	H37Rv	-	resazurin	-	MIC90	<2 µM
O=C(N/N=C/c1ccc(O)cc1O)C(=O)N/N=C/c1ccc(O)cc1O	-	H37Rv	-	BACTEC	12.5 µg/mL	inhibition	3%
O=C(Cc1csc2nc(-c3ccc(Cl)cc3)cn12)NN=C1CCCC1	-	H37Rv	-	-	6.25 µg/mL	inhibition	99%
Cc1ccc2nc(C)c(C(=O)NCc3ccc(C(F)(F)F)cc3)n2c1	-	H37Rv	-	resazurin	-	MIC90	<2 µM
O=[N+]([O-])C1=CC(=N/Cl)/C=CC/1=N\Cl	-	H37Rv	-	BACTEC	12.5 µg/mL	inhibition	-21%
O=C(NCN1CCCC1)c1cnccn1	-	MS6210	-	-	-	MIC	100 µg/mL
Cc1ccc(NC(=S)SCc2ccc(Cl)cc2)cc1Br	-	H37Rv	-	BACTEC	12.5 µg/mL	inhibition	40%
NC(=O)c1cnccn1	-	ATCC 35822	-	-	-	MIC	33 µg/mL
NNC(=O)c1ccncc1	-	Isolate A	-	-	-	MIC	0.125 µg/mL
NNC(=O)c1ccncc1	-	90-0233 (INH SM-RS)	-	-	-	MIC	2.5 µg/mL
CCCC(=O)N1CCN(c2ccc(C(C)=O)cc2)CC1	-	Wild type without biotin	-	turbidity	-	MIC50	>50 µM
COc1ccc(O)c(C(=O)/C=C/c2ccco2)c1	-	H37Rv	-	-	-	MIC	>12.5 µg/mL
N[C@@H]1CONC1=O	-	90-0145 (drug-susceptible)	-	-	-	MIC	50 µg/mL
CO[C@H]1/C=C/O[C@@]2(C)Oc3c(C)c(O)c4c(=O)c(c5oc6cc(N7CCN(CC(C)C)CC7)cc(=O)c6nc5c4c3=C2O)NC(=O)/C(C)=C\C=C\[C@H](C)[C@H](O)[C@@H](C)[C@@H](O)[C@@H](C)[C@H](OC(C)=O)[C@@H]1C	-	2237 (rifampicin-susceptible)	-	-	-	MIC	0.0078 µg/mL
C/C=C1\C(=O)O[C@]23C=C[C@@H]4C(C(=O)OC)=CO[C@H](O[C@@H]12)[C@@H]43	-	MDR2 clinical isolate	-	MTT	-	MBC	4.4 µg/mL
NC[C@@H]1O[C@H](O[C@H]2[C@@H](O)[C@H](O[C@@H]3[C@@H](O)[C@H](N)C[C@H](N)[C@H]3O[C@H]3O[C@H](CO)[C@@H](O)[C@H](O)[C@H]3N)O[C@@H]2CO)[C@H](N)[C@@H](O)[C@@H]1O	-	MTB11 (EMB-R)	-	-	-	MIC	0.75 µg/mL
CC1CCCC2(C1)SC(C)C(=O)N2NC(=O)Cc1csc2nc(-c3ccccc3)cn12.O	-	H37Rv	-	-	-	EC50	<6.25 µg/mL
O=C(CSc1nnc(-c2ccccn2)s1)N/N=c1/scc(-c2ccc(Br)cc2)n1-c1ccccc1	-	Clinical isolate 190	-	-	-	MIC	80 µg/mL
COc1ccc(-c2noc(C3=CC4(CCN(Cc5nc(C)no5)CC4)c4ccccc43)n2)cc1	-	H37Rv	-	resazurin	-	MIC	50 µM
CC1CCC2(CC1)SC(C)C(=O)N2NC(=O)Cc1csc2nc(-c3ccccc3)cn12	-	H37Rv	VERO	-	-	EC50	<6.25 µg/mL
C=C1C(=O)[C@@]23CC[C@H]4C(C)(CCC[C@@]4(C)C(=O)OC)[C@@H]2CC[C@]1(O)C3	-	TAC-R	-	-	-	MIC	6.3 µg/mL
Nc1ccccc1/C=C/C(=O)c1cc(Br)ccc1O	-	H37Rv	-	-	-	MIC	>12.5 µg/mL
CC(C)N=c1cc2n(-c3ccc(Cl)cc3)c3ccccc3nc-2cc1Nc1ccc(Cl)cc1	-	90-0201 (drug-susceptible)	-	-	-	MIC	0.2 µg/mL
CCC1CCC2(CC1)SC(C)C(=O)N2NC(=O)Cc1csc2nc(-c3ccc(Cl)cc3)cn12	-	H37Rv	VERO	-	-	MIC	6.25 µg/mL
Cc1cnc(C(=O)NCN2CCOCC2)cn1	-	PZA-resistant	-	-	-	MIC	100 µg/mL
O=C(/C=C/c1ccccc1Br)c1ccccc1O	-	H37Rv	-	-	-	MIC	>12.5 µg/mL
CCC12CC3(C(=O)OC)OC1C(O)CN1CCc4c(n3c3cc(OC)ccc43)C12	-	H37Rv	-	BACTEC	-	MIC bound	>12.8 µg/mL
Cc1cn2c(C(=O)NCc3ccc(N4CCC5(CC4)OC[C@@H](C)O5)c(F)c3)c(C)nc2s1	-	H37Rv	-	resazurin	-	MIC90	<2 µM
O=C1OCc2cc(N3CCN(C(=O)c4cccc(Cl)c4)CC3)ccc21	-	BioA underexpression strain	-	turbidity	-	MIC90	22.8 µM
CCC1CCC2(CC1)SCC(=O)N2NC(=O)Cc1csc2nc(-c3ccc(Cl)cc3)cn12	-	H37Rv	-	-	-	EC50	>6.25 µg/mL
CC(=O)c1ccc(N2CCN(C(=O)c3cc(Cl)cc(Cl)c3)CC2)cc1	-	BioA underexpression strain	-	turbidity	-	MIC50	>50 µM
NCC[C@H](O)C(=O)N[C@@H]1C[C@H](N)[C@@H](O[C@H]2O[C@H](CN)[C@@H](O)[C@H](O)[C@H]2O)[C@H](O)[C@H]1O[C@H]1O[C@H](CO)[C@@H](O)[C@H](N)[C@H]1O	-	H37Rv	-	-	-	MIC	0.5 µg/mL
CC1CCC(=NNC(=O)Cc2csc3nc(-c4ccccc4)cn23)CC1	-	H37Rv	-	-	-	MIC	>6.25 µg/mL
COc1ccc(-c2cc(=O)c3ccc(F)cc3o2)cc1	-	H37Rv	-	-	12.5 µg/mL	inhibition	50%
CC1=C(/C=C/C(C)=C/C=C/C(C)=C/C=N/NC(=O)c2cccnc2)C(C)(C)CCC1	-	H37Rv	-	BACTEC	12.5 µg/mL	inhibition	86%
O=C(CSc1nnc(-c2ccccn2)s1)N/N=c1/scc(-c2ccccc2)n1-c1ccc(Cl)cc1	-	Clinical isolate 180	-	-	-	MIC	40 µg/mL
COc1ccc(-c2cc(=O)c3ccccc3o2)cc1	-	H37Rv	-	-	-	MIC	>12.5 µg/mL
Cc1ccc(N2CCN(CCCC3(c4ccccc4)OCCO3)CC2C)cc1Cl.Cl	-	H37Rv	-	BACTEC	-	MIC bound	>12.5 µg/mL
CCN(CC)CNC(=O)c1cnc(N(CC)CC)cn1	-	ATCC 27294	-	-	-	MIC	64 µg/mL
Cc1c(O)c(=O)ccn1[C@@H]1O[C@H](CO)[C@@H](O)[C@H]1O	-	H37Rv	-	BACTEC	12.5 µg/mL	inhibition	-12%
O=C(CSc1nnc(-c2ccccn2)s1)N/N=c1/scc(-c2ccc(Cl)cc2)n1-c1ccccc1	-	Clinical isolate 331	-	-	-	MIC	80 µg/mL
CN[C@@H]1[C@H](O[C@H]2[C@H](O[C@H]3[C@H](O)[C@@H](O)[C@H](N=C(N)N)[C@@H](O)[C@@H]3N=C(N)N)O[C@@H](C)[C@]2(O)C=O)O[C@@H](CO)[C@H](O)[C@H]1O	-	3564/83 (streptomycin-resistant)	-	-	-	MIC	25–50 µg/mL
CCCCCCCCCCCCCCCCCCOCC(COP(=O)(O)OCC[N+](C)(C)C)OC	-	H37Rv	-	BACTEC	-	MIC	≥12.5 µg/mL
CC(=O)c1ccc(N2CCN(C(=O)c3cscn3)CC2)cc1	-	BioA underexpression strain	-	turbidity	-	MIC50	>50 µM
CC[C@@H](CO)NCCN[C@@H](CC)CO	Isoniazid-resistant	912253	-	resazurin	-	MIC	1.2 µM
CN1CCN(CNC(=O)c2cnccn2)CC1	-	ATCC 27294	-	-	-	MIC	300 µg/mL
Cc1ccccc1-c1cs/c(=N/NC(=O)CSc2nnc(-c3ccccn3)s2)n1-c1ccccc1	-	H37Rv	-	-	-	MIC	>80 µg/mL
CC(=O)Nc1ccc(/C=N/NC(N)=S)cc1	-	Isolate B drug-susceptible	-	-	-	MIC	15 µg/mL
CCOC(=O)Nc1nc2ccccc2n1CN1CCN(c2ccccc2)CC1	-	H37Rv	-	resazurin	6.25 µg/mL	inhibition	8%
O=C(Cc1csc2nc(-c3ccc(Cl)cc3)cn12)NN=C1CCCCC1	-	H37Rv	-	-	-	MIC	>6.25 µg/mL
CN[C@@H]1[C@H](O[C@H]2[C@H](O[C@H]3[C@H](O)[C@@H](O)[C@H](N=C(N)N)[C@@H](O)[C@@H]3N=C(N)N)O[C@@H](C)[C@]2(O)C=O)O[C@@H](CO)[C@H](O)[C@H]1O	Spiroindene-resistant	TB365	-	turbidity	-	MIC	0.5 µM
NC(=O)c1nnn(-c2ccccc2)c1N	-	H37Rv	-	BACTEC	12.5 µg/mL	inhibition	14%
Cc1ccn2c(C(=O)NCc3ccc(Oc4cccc(C(F)(F)F)c4)cc3)c(C)nc2c1	-	H37Rv	-	resazurin	-	MIC90	<2 µM
CC1CCC/C(=N\NC(=O)Cc2csc3nc(-c4ccc(Cl)cc4)cn23)C1	-	H37Rv	-	-	-	EC50	<6.25 µg/mL
NNC(=O)c1cc(I)c(N)c(I)c1	-	H37Rv	-	BACTEC	12.5 µg/mL	inhibition	3%
CN(C)c1ccc(/C=C/C(=O)c2ccncc2)cc1	-	H37Rv	-	-	-	MIC	>12.5 µg/mL
CC1COc2c(N3CCN(C)CC3)c(F)cc3c(=O)c(C(=O)O)cn1c23	Isoniazid-resistant	912253	-	resazurin	-	MIC	0.14 µM
CC(C)=CCC1(O)C(=O)c2ccccc2C1(O)C(=O)O	-	H37Rv	-	BACTEC	-	MIC	≥12.5 µg/mL
CN[C@@H]1[C@H](O[C@H]2[C@H](O[C@H]3[C@H](O)[C@@H](O)[C@H](N=C(N)N)[C@@H](O)[C@@H]3N=C(N)N)O[C@@H](C)[C@]2(O)C=O)O[C@@H](CO)[C@H](O)[C@H]1O	-	90-0233 (INH SM-RS)	-	-	-	MIC	16 µg/mL
C=C(C)C1CC=C(C)/C(=N/NC(=O)c2cccnc2)C1	-	H37Rv	-	BACTEC	12.5 µg/mL	inhibition	100%
NC[C@H]1O[C@H](O[C@H]2[C@H](O)[C@@H](O[C@H]3O[C@H](CO)[C@@H](O)[C@H](N)[C@H]3O)[C@H](N)C[C@@H]2N)[C@H](O)[C@@H](O)[C@@H]1O	-	90-0240 (drug-susceptible)	-	-	-	MIC	2 µg/mL
CCC1CCC2(CC1)SCC(=O)N2NC(=O)Cc1csc2nc(-c3ccccc3)cn12	-	H37Rv	VERO	-	6.25 µg/mL	inhibition	99%
CCC(=O)OC[n+]1ccc2c(C)c3[nH]c4ccc(OC)cc4c3c(C)c2c1	-	H37Rv	-	resazurin	-	MIC bound	<6.25 µg/mL
Cc1ccc(-c2noc(C3=CC4(CCN(CC5CCCO5)CC4)c4ccccc43)n2)cn1	Spiroindene-resistant	TB376	-	turbidity	-	MIC	15.5 µM
COc1ncc(Br)cc1C(=O)NCCc1ccc(S(=O)(=O)[N-]C(=O)NC2CCCCC2)cc1.[Na+]	-	H37Rv	-	BACTEC	12.5 µg/mL	inhibition	12%
Cc1ccn2c(C(=O)NCc3ccc(N4CCC(Oc5ccc(C(F)(F)F)cc5)CC4)c(F)c3)c(C)nc2c1	-	H37Rv	-	resazurin	-	MIC90	<2 µM
C[C@@H]1C(=O)OCC2=C3C[C@@H](CC[C@@]3(C)C=CC2=O)[C@H](C)C(=O)OCC2=C3C[C@H]1CC[C@@]3(C)C=CC2=O	-	H37Rv	-	BACTEC	-	MIC	≥12.5 µg/mL
CCc1nc2cc(C)ccn2c1C(=O)NCc1ccc2c(c1)CCO2	-	H37Rv	-	resazurin	-	MIC90	<2 µM
O=c1c2oc3ccccc3c2cnn1CO	-	H37Rv	-	BACTEC	-	MIC bound	>12.5 µg/mL
CC(=O)c1ccc(N2CCN(C(=O)c3ccc4c(c3)OCCCO4)CC2)cc1	-	Wild type without biotin	-	turbidity	-	MIC50	>50 µM
CC1(C)CCC[C@]2(C)[C@H]3C=C4C=C(O)C(=O)C=C4O[C@@]3(C)CC[C@@H]12	-	INH-r	-	-	-	MIC	12.5 µg/mL
O=c1cc(-c2ccccc2)oc2cc(F)ccc12	-	H37Rv	-	-	-	MIC	>12.5 µg/mL
CCN(CC)c1ccc(N=C2C=C(C(=O)Nc3ccc(C(=O)O)cc3)C(=O)c3ccccc32)c(C)c1	-	H37Rv	-	BACTEC	12.5 µg/mL	inhibition	8%
O=C(CSc1nnc(-c2ccccn2)s1)N/N=c1/scc(-c2ccccc2)n1-c1ccccc1Br	-	H37Rv	-	-	-	MIC	>80 µg/mL
CC(=O)c1ccc(N2CCN(C(=O)c3ccc4c(c3)OCCO4)CC2)cc1	-	Wild type without biotin	-	turbidity	-	MIC50	>50 µM
NNC(=O)c1ccncc1	-	MTB14 (S)	-	-	-	MIC	0.12 µg/mL

MIC50, MIC90 and the like: level of inhibition, or share of isolates inhibited. ECn is the concentration giving n% inhibition of infection, replication or growth. Conditions beyond the fields shown may differ between rows. An empty or dashed field is not shown. Percent inhibition refers to the dose given; in toxicity tests it is the harm to the cells. a–b is a range or a potency band.